Test results taken from article PMC3461044, “Probing Protein Sequences as Sources for Encrypted Antimicrobial Peptides” (PLoS ONE, 2012).

What was measured:
[1] = Differential scanning calorimetry of the main phase transition of LUVs with peptide; conditions: pH 7.4, non-two state fit; for Tm broad, fitted (transition temperature): 0.5 mM DMPC LUVs + peptide 4 mol% (20 µM), 20 mM sodium phosphate, 150 mM NaCl, 1°C/min; for Tm broad, fitted (transition temperature) / DH broad, fitted (transition enthalpy) / DHvh broad, fitted (van't Hoff transition enthalpy): broad component; for DH broad, fitted (transition enthalpy) / DHvh broad, fitted (van't Hoff transition enthalpy) / DH sharp, fitted (transition enthalpy) / DHvh sharp, fitted (van't Hoff transition enthalpy) / Tm sharp, fitted (transition temperature): 0.5 mM DMPC LUVs + peptide 4 mol%; for DH sharp, fitted (transition enthalpy) / DHvh sharp, fitted (van't Hoff transition enthalpy) / Tm sharp, fitted (transition temperature): sharp component
[2] = Far UV circular dichroism of peptides with DMPC LUVs (MRE, α-helix percentage); conditions: for % Helicity 0.01 peptide/DMPC (mol/mol) (Greenfield 69) / % Helicity 0.01 peptide/DMPC (mol/mol) (Chen 74): DMPC LUVs; for % Helicity 0.01 peptide/DMPC (mol/mol) (Greenfield 69): from [q]208 nm, Greenfield et al. 1969; for % Helicity 0.01 peptide/DMPC (mol/mol) (Chen 74): from [q]222 nm, Chen et al. 1974; for [q]208 nm 0.01 peptide/DMPC (mol/mol) (Greenfield 69): Mean Residue Ellipticity at 208 nm; for [q]208 nm 0.01 peptide/DMPC (mol/mol) (Greenfield 69) / [q]222 nm 0.01 peptide/DMPC (mol/mol) (Chen 74): titrated with DMPC LUVs; for [q]222 nm 0.01 peptide/DMPC (mol/mol) (Chen 74): Mean Residue Ellipticity at 222 nm
[3] = Far UV circular dichroism of peptides with 2:1 DMPC:DMPG LUVs (MRE, α-helix percentage); conditions: 0.01 peptide/lipid (mol/mol); for % Helicity 0.01 peptide/(2:1 DMPC/DMPG) (mol/mol) (Greenfield 69) / % Helicity 0.01 peptide/(2:1 DMPC/DMPG) (mol/mol): 2:1 DMPC/DMPG LUVs; for % Helicity 0.01 peptide/(2:1 DMPC/DMPG) (mol/mol) (Greenfield 69): from [q]208 nm, Greenfield et al. 1969; for % Helicity 0.01 peptide/(2:1 DMPC/DMPG) (mol/mol): from [q]222 nm, Chen et al. 1974; for [q]208 nm 0.01 peptide/(2:1 DMPC/DMPG) (mol/mol) (Greenfield 69): Mean Residue Ellipticity at 208 nm; for [q]208 nm 0.01 peptide/(2:1 DMPC/DMPG) (mol/mol) (Greenfield 69) / [q]222 nm 0.01 peptide/(2:1 DMPC/DMPG) (mol/mol) (Chen 74): titrated with 2:1 DMPC/DMPG LUVs; for [q]222 nm 0.01 peptide/(2:1 DMPC/DMPG) (mol/mol) (Chen 74): Mean Residue Ellipticity at 222 nm

GHRGALKDWVQAAGGAVAAFDFTTKG [Q8RW88(70–95), putative IAP; fragment of Alpha-amylase, Citrus reticulata]
Tm broad, fitted (transition temperature) [1]: 23.49 °C
DH broad, fitted (transition enthalpy) [1]: 2.67 kcal/mol
DHvh broad, fitted (van't Hoff transition enthalpy) [1]: 285 kcal/mol
DH sharp, fitted (transition enthalpy) [1]: 2.01 kcal/mol
DHvh sharp, fitted (van't Hoff transition enthalpy) [1]: 1010 kcal/mol
Tm sharp, fitted (transition temperature) [1]: 24.2 °C
% Helicity 0.01 peptide/DMPC (mol/mol) (Greenfield 69) [2]: 1.5%
% Helicity 0.01 peptide/DMPC (mol/mol) (Chen 74) [2]: 12.5%
[q]208 nm 0.01 peptide/DMPC (mol/mol) (Greenfield 69) [2]: -4424
[q]222 nm 0.01 peptide/DMPC (mol/mol) (Chen 74) [2]: -4406
% Helicity 0.01 peptide/(2:1 DMPC/DMPG) (mol/mol) (Greenfield 69) [3]: -1.2%
% Helicity 0.01 peptide/(2:1 DMPC/DMPG) (mol/mol) [3]: 15.1%
[q]208 nm 0.01 peptide/(2:1 DMPC/DMPG) (mol/mol) (Greenfield 69) [3]: -3645
[q]222 nm 0.01 peptide/(2:1 DMPC/DMPG) (mol/mol) (Chen 74) [3]: -5317

GLWQIFSSKEEGKDNSQQKSKGDQAKEL [gb|ACU24018.1|(73–101), putative IAP; fragment of Unknown protein, Glycine max]
Tm broad, fitted (transition temperature) [1]: 23.49 °C
DH broad, fitted (transition enthalpy) [1]: 2.82 kcal/mol
DHvh broad, fitted (van't Hoff transition enthalpy) [1]: 297 kcal/mol
DH sharp, fitted (transition enthalpy) [1]: 2.21 kcal/mol
DHvh sharp, fitted (van't Hoff transition enthalpy) [1]: 1010 kcal/mol
Tm sharp, fitted (transition temperature) [1]: 24.2 °C
% Helicity 0.01 peptide/DMPC (mol/mol) (Greenfield 69) [2]: 11.1%
% Helicity 0.01 peptide/DMPC (mol/mol) (Chen 74) [2]: 5.4%
[q]208 nm 0.01 peptide/DMPC (mol/mol) (Greenfield 69) [2]: -7231
[q]222 nm 0.01 peptide/DMPC (mol/mol) (Chen 74) [2]: -1898
% Helicity 0.01 peptide/(2:1 DMPC/DMPG) (mol/mol) (Greenfield 69) [3]: 9.0%
% Helicity 0.01 peptide/(2:1 DMPC/DMPG) (mol/mol) [3]: 6.4%
[q]208 nm 0.01 peptide/(2:1 DMPC/DMPG) (mol/mol) (Greenfield 69) [3]: -6610
[q]222 nm 0.01 peptide/(2:1 DMPC/DMPG) (mol/mol) (Chen 74) [3]: -2273

GLWSTIKQKGKE [DS 01 (1–12), fragment 1–12 of DS 01, Phyllomedusa oreades, reference compound]
Tm broad, fitted (transition temperature) [1]: 23.49 °C
DH broad, fitted (transition enthalpy) [1]: 2.58 kcal/mol
DHvh broad, fitted (van't Hoff transition enthalpy) [1]: 282 kcal/mol
DH sharp, fitted (transition enthalpy) [1]: 1.8 kcal/mol
DHvh sharp, fitted (van't Hoff transition enthalpy) [1]: 1060 kcal/mol
Tm sharp, fitted (transition temperature) [1]: 24.18 °C
% Helicity 0.01 peptide/DMPC (mol/mol) (Greenfield 69) [2]: 18.8%
% Helicity 0.01 peptide/DMPC (mol/mol) (Chen 74) [2]: 3.7%
[q]208 nm 0.01 peptide/DMPC (mol/mol) (Greenfield 69) [2]: -9447
[q]222 nm 0.01 peptide/DMPC (mol/mol) (Chen 74) [2]: -1312
% Helicity 0.01 peptide/(2:1 DMPC/DMPG) (mol/mol) (Greenfield 69) [3]: 18.4%
% Helicity 0.01 peptide/(2:1 DMPC/DMPG) (mol/mol) [3]: 10.7%
[q]208 nm 0.01 peptide/(2:1 DMPC/DMPG) (mol/mol) (Greenfield 69) [3]: -9322
[q]222 nm 0.01 peptide/(2:1 DMPC/DMPG) (mol/mol) (Chen 74) [3]: -3767

IAAAQRITSGAADIAINWAGGLHHAKK [B0CZJ3(104–130), putative IAP; fragment of Histone deacetylase complex, Laccaria bicolor]
Tm broad, fitted (transition temperature) [1]: 23.5 °C
DH broad, fitted (transition enthalpy) [1]: 2.67 kcal/mol
DHvh broad, fitted (van't Hoff transition enthalpy) [1]: 295 kcal/mol
DH sharp, fitted (transition enthalpy) [1]: 2.03 kcal/mol
DHvh sharp, fitted (van't Hoff transition enthalpy) [1]: 1030 kcal/mol
Tm sharp, fitted (transition temperature) [1]: 24.2 °C
% Helicity 0.01 peptide/DMPC (mol/mol) (Greenfield 69) [2]: 32.4%
% Helicity 0.01 peptide/DMPC (mol/mol) (Chen 74) [2]: 16.2%
[q]208 nm 0.01 peptide/DMPC (mol/mol) (Greenfield 69) [2]: -13392
[q]222 nm 0.01 peptide/DMPC (mol/mol) (Chen 74) [2]: -5729
% Helicity 0.01 peptide/(2:1 DMPC/DMPG) (mol/mol) (Greenfield 69) [3]: 34.9%
% Helicity 0.01 peptide/(2:1 DMPC/DMPG) (mol/mol) [3]: 19.6%
[q]208 nm 0.01 peptide/(2:1 DMPC/DMPG) (mol/mol) (Greenfield 69) [3]: -14114
[q]222 nm 0.01 peptide/(2:1 DMPC/DMPG) (mol/mol) (Chen 74) [3]: -6900

KLKKLLAGQKDGLLGQIAAMSDLYTKK [P94692(929–955), putative IAP; fragment of Pyruvate-ferredoxin oxidoreductase, Desulfovibrio africanus]
Tm broad, fitted (transition temperature) [1]: 23.5 °C
DH broad, fitted (transition enthalpy) [1]: 2.43 kcal/mol
DHvh broad, fitted (van't Hoff transition enthalpy) [1]: 304 kcal/mol
DH sharp, fitted (transition enthalpy) [1]: 1.85 kcal/mol
DHvh sharp, fitted (van't Hoff transition enthalpy) [1]: 1050 kcal/mol
Tm sharp, fitted (transition temperature) [1]: 24.19 °C
% Helicity 0.01 peptide/DMPC (mol/mol) (Greenfield 69) [2]: 8.3%
% Helicity 0.01 peptide/DMPC (mol/mol) (Chen 74) [2]: 8.2%
[q]208 nm 0.01 peptide/DMPC (mol/mol) (Greenfield 69) [2]: -6412
[q]222 nm 0.01 peptide/DMPC (mol/mol) (Chen 74) [2]: -2899
% Helicity 0.01 peptide/(2:1 DMPC/DMPG) (mol/mol) (Greenfield 69) [3]: 40.7%
% Helicity 0.01 peptide/(2:1 DMPC/DMPG) (mol/mol) [3]: 34.7%
[q]208 nm 0.01 peptide/(2:1 DMPC/DMPG) (mol/mol) (Greenfield 69) [3]: -15801
[q]222 nm 0.01 peptide/(2:1 DMPC/DMPG) (mol/mol) (Chen 74) [3]: -12242

SLWKNLSRKISGAVKAQPDLHTLLPLPGS [Q9XEY7(120–148), putative IAP; fragment of Trehalase 1 GMTRE1, Glycine max]
Tm broad, fitted (transition temperature) [1]: 23.49 °C
DH broad, fitted (transition enthalpy) [1]: 2.57 kcal/mol
DHvh broad, fitted (van't Hoff transition enthalpy) [1]: 306 kcal/mol
DH sharp, fitted (transition enthalpy) [1]: 2.22 kcal/mol
DHvh sharp, fitted (van't Hoff transition enthalpy) [1]: 909 kcal/mol
Tm sharp, fitted (transition temperature) [1]: 24.17 °C
% Helicity 0.01 peptide/DMPC (mol/mol) (Greenfield 69) [2]: 24.2%
% Helicity 0.01 peptide/DMPC (mol/mol) (Chen 74) [2]: 9%
[q]208 nm 0.01 peptide/DMPC (mol/mol) (Greenfield 69) [2]: -11017
[q]222 nm 0.01 peptide/DMPC (mol/mol) (Chen 74) [2]: -3183
% Helicity 0.01 peptide/(2:1 DMPC/DMPG) (mol/mol) (Greenfield 69) [3]: 49.3%
% Helicity 0.01 peptide/(2:1 DMPC/DMPG) (mol/mol) [3]: 34.5%
[q]208 nm 0.01 peptide/(2:1 DMPC/DMPG) (mol/mol) (Greenfield 69) [3]: -18288
[q]222 nm 0.01 peptide/(2:1 DMPC/DMPG) (mol/mol) (Chen 74) [3]: -12158

VWTTAMEKSSAANFSMSRNQRRSSLHSL [gb|AAD22970.1|(120–148), putative IAP; fragment of Trehalase 1 GMTRE1, Glycine max]
Tm broad, fitted (transition temperature) [1]: 23.49 °C
DH broad, fitted (transition enthalpy) [1]: 2.62 kcal/mol
DHvh broad, fitted (van't Hoff transition enthalpy) [1]: 294 kcal/mol
DH sharp, fitted (transition enthalpy) [1]: 2.08 kcal/mol
DHvh sharp, fitted (van't Hoff transition enthalpy) [1]: 990 kcal/mol
Tm sharp, fitted (transition temperature) [1]: 24.19 °C
